One compound from PMC12624782 (The Journal of Biological Chemistry, 2025) can be followed below.

Protein sequences, listed by entry. Tags and fused reporters are not part of them. Residues count along the entry.
UniProt A0A3B5XZG4, 1-234: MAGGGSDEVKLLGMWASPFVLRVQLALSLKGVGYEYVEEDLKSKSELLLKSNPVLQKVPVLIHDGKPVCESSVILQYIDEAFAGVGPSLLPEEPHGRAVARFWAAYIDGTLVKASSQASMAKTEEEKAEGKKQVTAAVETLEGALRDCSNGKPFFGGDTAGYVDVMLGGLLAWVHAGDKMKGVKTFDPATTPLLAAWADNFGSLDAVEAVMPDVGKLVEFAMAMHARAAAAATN

This experiment concerns the target TaGST-10 (Triticum aestivum, UniProt A0A3B5XZG4). Put plainly: crystal structure, […] Å (ligand modeled from electron density).

As for `CC1=C[C@H]2O[C@@H]3[C@H](O)C[C@](C)([C@]24CO[C@@]1(O)[C@H]4O)[C@]3(O)CSC[C@H](N)C(=O)O`, the “crystal structure, 2.3 Å (ligand modeled from electron density)” value is listed as “Chain A of TaGST-10 contained an additional ligand that was modeled as DON-13-cysteine based on the electron density”.
